Protein sequences, listed by entry. Tags and fused reporters are not part of them. Residues count along the entry.
UniProt P30926, 22-498 limits assumed: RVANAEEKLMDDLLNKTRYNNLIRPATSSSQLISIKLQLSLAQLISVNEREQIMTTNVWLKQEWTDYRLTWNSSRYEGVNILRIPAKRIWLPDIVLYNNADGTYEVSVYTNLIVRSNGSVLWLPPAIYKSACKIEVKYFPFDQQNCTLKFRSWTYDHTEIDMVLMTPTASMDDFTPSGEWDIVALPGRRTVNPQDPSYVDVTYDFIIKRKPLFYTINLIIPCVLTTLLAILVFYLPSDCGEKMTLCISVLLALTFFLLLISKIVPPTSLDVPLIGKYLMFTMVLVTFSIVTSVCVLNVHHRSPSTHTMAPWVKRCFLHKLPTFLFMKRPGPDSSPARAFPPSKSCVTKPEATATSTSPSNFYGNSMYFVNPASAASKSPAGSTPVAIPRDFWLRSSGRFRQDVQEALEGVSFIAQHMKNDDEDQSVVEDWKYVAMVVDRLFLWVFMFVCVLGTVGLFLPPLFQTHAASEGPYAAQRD
UniProt P32297, 32-505 limits assumed: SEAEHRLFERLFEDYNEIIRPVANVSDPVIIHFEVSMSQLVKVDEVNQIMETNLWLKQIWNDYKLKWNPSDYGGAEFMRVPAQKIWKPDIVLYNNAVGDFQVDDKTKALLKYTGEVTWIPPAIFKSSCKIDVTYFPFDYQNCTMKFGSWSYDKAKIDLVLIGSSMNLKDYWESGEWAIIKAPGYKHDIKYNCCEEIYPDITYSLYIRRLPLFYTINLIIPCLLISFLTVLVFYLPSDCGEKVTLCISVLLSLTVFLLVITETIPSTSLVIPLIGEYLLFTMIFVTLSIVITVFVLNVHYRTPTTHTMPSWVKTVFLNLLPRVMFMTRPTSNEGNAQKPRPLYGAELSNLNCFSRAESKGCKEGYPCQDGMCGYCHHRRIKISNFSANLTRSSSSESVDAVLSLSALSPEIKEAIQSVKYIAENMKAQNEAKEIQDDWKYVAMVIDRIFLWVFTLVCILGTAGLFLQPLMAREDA
UniProt Q9UGM1, 23-479 limits assumed: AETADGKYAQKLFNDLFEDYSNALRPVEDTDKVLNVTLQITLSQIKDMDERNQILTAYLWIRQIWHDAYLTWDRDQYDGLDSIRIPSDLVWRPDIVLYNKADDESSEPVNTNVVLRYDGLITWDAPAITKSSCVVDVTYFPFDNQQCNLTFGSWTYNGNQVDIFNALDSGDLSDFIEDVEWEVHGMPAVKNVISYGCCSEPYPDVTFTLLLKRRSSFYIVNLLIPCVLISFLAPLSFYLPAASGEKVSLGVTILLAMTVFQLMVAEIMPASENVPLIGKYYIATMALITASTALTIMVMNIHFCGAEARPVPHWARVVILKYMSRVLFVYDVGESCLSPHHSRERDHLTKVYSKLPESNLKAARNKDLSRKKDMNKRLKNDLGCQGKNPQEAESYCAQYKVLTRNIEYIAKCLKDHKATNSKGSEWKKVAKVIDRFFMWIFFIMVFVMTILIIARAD
UniProt Q9GZZ6, 25-450 limits assumed: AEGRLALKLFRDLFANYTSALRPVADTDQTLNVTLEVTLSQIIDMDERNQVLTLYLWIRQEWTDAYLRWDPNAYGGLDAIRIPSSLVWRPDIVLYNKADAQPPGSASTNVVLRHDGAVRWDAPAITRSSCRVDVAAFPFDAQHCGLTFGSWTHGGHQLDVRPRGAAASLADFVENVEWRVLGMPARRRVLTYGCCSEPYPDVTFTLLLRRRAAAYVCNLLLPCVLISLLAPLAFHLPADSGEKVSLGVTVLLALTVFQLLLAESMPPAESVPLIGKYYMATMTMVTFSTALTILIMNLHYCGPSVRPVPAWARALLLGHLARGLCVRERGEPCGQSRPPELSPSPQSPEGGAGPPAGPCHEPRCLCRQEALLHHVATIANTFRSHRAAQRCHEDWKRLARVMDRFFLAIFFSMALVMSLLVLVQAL
UniProt P17787, 26-502 limits assumed: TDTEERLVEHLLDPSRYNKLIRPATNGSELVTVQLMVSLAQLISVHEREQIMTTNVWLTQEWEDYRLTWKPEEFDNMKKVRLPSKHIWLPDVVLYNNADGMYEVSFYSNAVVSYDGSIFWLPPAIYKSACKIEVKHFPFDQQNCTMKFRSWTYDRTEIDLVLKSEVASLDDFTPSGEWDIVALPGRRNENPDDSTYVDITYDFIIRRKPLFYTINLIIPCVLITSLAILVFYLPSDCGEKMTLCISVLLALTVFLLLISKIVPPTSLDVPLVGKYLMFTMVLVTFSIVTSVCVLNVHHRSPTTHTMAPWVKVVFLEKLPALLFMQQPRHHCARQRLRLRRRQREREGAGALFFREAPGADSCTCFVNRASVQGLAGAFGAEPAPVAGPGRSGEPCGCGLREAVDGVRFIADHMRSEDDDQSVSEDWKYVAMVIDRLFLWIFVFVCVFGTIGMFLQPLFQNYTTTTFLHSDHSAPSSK
UniProt P43681, 27-627 limits assumed: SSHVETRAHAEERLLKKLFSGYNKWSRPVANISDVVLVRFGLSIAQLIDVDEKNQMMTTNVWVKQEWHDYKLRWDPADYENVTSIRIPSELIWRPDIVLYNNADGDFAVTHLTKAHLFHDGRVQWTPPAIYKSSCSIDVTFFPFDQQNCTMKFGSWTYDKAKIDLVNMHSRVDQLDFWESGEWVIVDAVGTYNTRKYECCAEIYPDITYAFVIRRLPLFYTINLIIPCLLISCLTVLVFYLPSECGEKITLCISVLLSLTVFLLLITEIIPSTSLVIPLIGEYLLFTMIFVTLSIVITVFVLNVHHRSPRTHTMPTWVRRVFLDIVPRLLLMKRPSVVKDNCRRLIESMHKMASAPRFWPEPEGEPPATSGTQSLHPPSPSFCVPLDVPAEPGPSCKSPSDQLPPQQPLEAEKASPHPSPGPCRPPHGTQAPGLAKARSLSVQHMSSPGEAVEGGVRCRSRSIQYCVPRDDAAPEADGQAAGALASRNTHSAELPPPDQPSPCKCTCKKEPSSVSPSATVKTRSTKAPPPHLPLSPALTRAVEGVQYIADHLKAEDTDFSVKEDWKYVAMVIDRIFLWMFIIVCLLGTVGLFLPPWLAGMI
UniProt Q15825, 26-494 limits assumed: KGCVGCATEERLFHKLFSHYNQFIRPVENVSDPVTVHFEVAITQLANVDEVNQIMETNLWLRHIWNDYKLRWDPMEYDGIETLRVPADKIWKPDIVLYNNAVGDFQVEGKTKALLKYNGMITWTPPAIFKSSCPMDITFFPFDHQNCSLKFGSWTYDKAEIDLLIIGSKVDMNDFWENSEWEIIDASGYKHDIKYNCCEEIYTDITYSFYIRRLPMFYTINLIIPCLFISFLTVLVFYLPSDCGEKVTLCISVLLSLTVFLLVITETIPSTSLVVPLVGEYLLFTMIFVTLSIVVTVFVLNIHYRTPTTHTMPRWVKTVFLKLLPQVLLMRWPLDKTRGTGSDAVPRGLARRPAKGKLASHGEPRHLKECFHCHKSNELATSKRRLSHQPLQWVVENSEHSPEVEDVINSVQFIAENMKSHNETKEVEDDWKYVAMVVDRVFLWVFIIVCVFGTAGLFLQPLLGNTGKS
UniProt Q15822, 27-529 limits assumed: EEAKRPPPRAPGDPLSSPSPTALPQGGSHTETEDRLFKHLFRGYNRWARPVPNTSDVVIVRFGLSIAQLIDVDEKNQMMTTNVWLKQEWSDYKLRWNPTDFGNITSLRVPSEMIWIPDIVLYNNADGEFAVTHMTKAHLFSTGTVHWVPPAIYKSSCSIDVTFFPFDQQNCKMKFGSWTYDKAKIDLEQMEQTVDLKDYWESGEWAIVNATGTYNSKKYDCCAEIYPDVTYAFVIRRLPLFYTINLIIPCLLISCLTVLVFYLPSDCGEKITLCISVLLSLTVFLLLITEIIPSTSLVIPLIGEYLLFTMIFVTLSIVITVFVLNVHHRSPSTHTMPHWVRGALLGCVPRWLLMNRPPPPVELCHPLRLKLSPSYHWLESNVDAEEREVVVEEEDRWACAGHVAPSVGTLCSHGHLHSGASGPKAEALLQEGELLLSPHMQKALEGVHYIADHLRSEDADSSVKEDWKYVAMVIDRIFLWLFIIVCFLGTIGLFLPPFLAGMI
UniProt P27338, 2-520 limits assumed: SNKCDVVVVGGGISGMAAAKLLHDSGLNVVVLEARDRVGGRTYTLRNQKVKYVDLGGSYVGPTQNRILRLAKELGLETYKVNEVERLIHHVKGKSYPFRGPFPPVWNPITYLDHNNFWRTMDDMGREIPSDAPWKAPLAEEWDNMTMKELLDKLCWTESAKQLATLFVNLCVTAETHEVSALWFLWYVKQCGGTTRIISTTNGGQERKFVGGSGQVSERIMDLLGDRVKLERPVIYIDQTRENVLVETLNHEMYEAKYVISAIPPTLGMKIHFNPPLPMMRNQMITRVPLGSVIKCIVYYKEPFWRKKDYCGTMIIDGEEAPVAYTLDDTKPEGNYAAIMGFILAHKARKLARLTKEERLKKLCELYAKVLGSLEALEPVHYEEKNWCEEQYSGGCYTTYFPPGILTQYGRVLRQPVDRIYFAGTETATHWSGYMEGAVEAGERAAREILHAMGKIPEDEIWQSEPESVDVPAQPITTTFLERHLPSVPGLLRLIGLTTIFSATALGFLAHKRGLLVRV
UniProt P21397, whole entry, looked up: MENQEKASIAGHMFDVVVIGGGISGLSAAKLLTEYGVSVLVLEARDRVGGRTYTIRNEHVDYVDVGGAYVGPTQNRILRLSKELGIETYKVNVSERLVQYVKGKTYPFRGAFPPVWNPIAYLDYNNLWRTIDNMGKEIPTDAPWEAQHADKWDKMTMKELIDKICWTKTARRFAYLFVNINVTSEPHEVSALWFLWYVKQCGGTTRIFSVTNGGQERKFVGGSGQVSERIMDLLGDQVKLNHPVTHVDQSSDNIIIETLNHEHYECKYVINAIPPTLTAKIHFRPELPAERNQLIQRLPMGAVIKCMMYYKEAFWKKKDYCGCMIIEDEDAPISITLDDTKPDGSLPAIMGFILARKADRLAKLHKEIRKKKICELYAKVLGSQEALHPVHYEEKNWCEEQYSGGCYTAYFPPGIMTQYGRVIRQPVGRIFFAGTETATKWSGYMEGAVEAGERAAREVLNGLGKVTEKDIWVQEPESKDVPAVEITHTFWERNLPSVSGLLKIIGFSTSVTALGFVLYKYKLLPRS

According to ChEMBL document CHEMBL5034007, “Discovery of Methylene Thioacetal-Incorporated α-RgIA Analogues as Potent and Stable Antagonists of the Human α9α10 Nicotinic Acetylcholine Receptor for the Treatment of Neuropathic Pain” (2021):

Legend:
[1] = target: Neuronal acetylcholine receptor; alpha3/beta4 (Homo sapiens, UniProt P30926+P32297); conditions: oocyte
[2] = target: Neuronal acetylcholine receptor; alpha9/alpha10 (Homo sapiens, UniProt Q9UGM1+Q9GZZ6); conditions: oocyte
[3] = target: Neuronal acetylcholine receptor; alpha4/beta2 (Homo sapiens, UniProt P17787+P43681); conditions: oocyte
[4] = target: Nicotinic acetylcholine receptor alpha6/alpha3/beta4 (Homo sapiens, UniProt P30926+P32297+Q15825); conditions: oocyte
[5] = target: Neuronal acetylcholine receptor; alpha3/beta2 (Homo sapiens, UniProt P17787+P32297); conditions: oocyte
[6] = target: Neuronal acetylcholine receptor; alpha2/beta4 (Homo sapiens, UniProt P30926+Q15822); conditions: oocyte
[7] = target: Neuronal acetylcholine receptor; alpha2/beta2 (Homo sapiens, UniProt P17787+Q15822); conditions: oocyte
[8] = Stability of the compound in PBS at pH 7.4 in presence of reduced glutathione measured after 8 hrs; conditions: buffer, pH 7.4, 8 h
[9] = Stability of the compound in human serum assessed as parent compound remaining measured after 24 hrs by RP-HPLC analysis
[10] = target: Amine oxidase [flavin-containing] B (Homo sapiens, UniProt P27338); assay: Inhibition of MAO-B (unknown origin)
[11] = target: Amine oxidase [flavin-containing] A (Homo sapiens, UniProt P21397); assay: Inhibition of MAO-A (unknown origin)

Which IC50 [1] does the source give for `C[C@@H](O)[C@@H]1NC(=O)[C@@H]2NC(=O)[C@H](NC(=O)CN)CSSC[C@H](NC(=O)[C@H](CCCNC(=N)N)NC(=O)[C@@H]3CCCN3C(=O)[C@H](CC(=O)O)NC1=O)C(=O)N[C@@H](CCCNC(N)=O)C(=O)N[C@@H](Cc1ccc(O)c(I)c1)C(=O)N[C@@H](CCC(N)=O)C(=O)N[C@H](C(=O)N[C@@H](Cc1ccc(O)cc1)C(=O)O)CSCS2` here?
The IC50 was greater than 10000 nM.

What about the IC50 [2] of the same compound?
Its IC50 is 6.1 nM.

What about the IC50 [3] of the same compound?
The IC50 was greater than 10000 nM.

And the IC50 [4]?
The IC50 was greater than 10000 nM.

What about the IC50 [5] of the same compound?
Its IC50 is greater than 10000 nM.

And the IC50 [6]?
The IC50 was greater than 10000 nM.

And the IC50 [7]?
The IC50 was greater than 10000 nM.

Which Stability [8] does the source give for `C[C@@H](O)[C@@H]1NC(=O)[C@@H]2CSSC[C@H](NC(=O)[C@H](CCCNC(=N)N)NC(=O)[C@@H]3CCCN3C(=O)[C@H](CC(=O)O)NC1=O)C(=O)N[C@@H](CCCNC(N)=O)C(=O)N[C@@H](Cc1ccc(O)c(I)c1)C(=O)N[C@@H](CCC(N)=O)C(=O)N[C@H](C(=O)N[C@@H](Cc1ccc(O)cc1)C(=O)O)CSSC[C@H](NC(=O)CN)C(=O)N2` here?
The Stability was less than 50%.

And the IC50 [2]?
Its IC50 is 1.5 nM.

Which IC50 [2] does the source give for `C[C@@H](O)[C@@H]1NC(=O)[C@@H]2CSSC[C@@H](C(=O)N[C@@H](Cc3ccc(O)cc3)C(=O)O)NC(=O)[C@H](CCC(N)=O)NC(=O)[C@H](Cc3ccc(O)c(I)c3)NC(=O)[C@H](CCCNC(N)=O)NC(=O)[C@H](CSCS[C@@H](NC(=O)CN)C(=O)N2)NC(=O)[C@H](CCCNC(=N)N)NC(=O)[C@@H]2CCCN2C(=O)[C@H](CC(=O)O)NC1=O` here?
The IC50 was 882 nM.

With `C[C@H](O)[C@H]1NC(=O)[C@@H]2NC(=O)[C@@H](NC(=O)CN)CSSC[C@H](NC(=O)[C@H](CCCNC(=N)N)NC(=O)[C@@H]3CCCN3C(=O)[C@H](CC(O)O)NC1=O)C(=O)N[C@@H](CCCNC(=N)N)C(=O)N[C@@H](Cc1ccc(O)c(I)c1)C(=O)N[C@@H](CCC(N)=O)C(=O)N[C@H](C(=O)N[C@H](CC(=O)N[C@@H](CCCNC(=N)N)C(=O)O)Cc1ccc(O)cc1)CSCS2` as the compound, how does the Stability [9] read?
The Stability was 25%.

And the inhibition (INH) [10]?
Its inhibition (INH) is 19.9%.

What about the inhibition (INH) [11] of the same compound?
The inhibition (INH) was -2.1%.

With `C[C@@H](O)[C@@H]1NC(=O)[C@@H]2CSSC[C@@H](C(=O)N[C@@H](Cc3ccc(O)cc3)C(=O)O)NC(=O)[C@H](CCC(N)=O)NC(=O)[C@H](Cc3ccc(O)c(I)c3)NC(=O)[C@H](CCCNC(=N)N)NC(=O)[C@H](CSSC[C@H](NC(=O)CN)C(=O)N2)NC(=O)[C@H](CCCNC(=N)N)NC(=O)[C@@H]2CCCN2C(=O)[C@H](CC(=O)O)NC1=O` as the compound, how does the IC50 [2] read?
Its IC50 is 0.5 nM.

With `C[C@H](O)[C@H]1NC(=O)[C@@H]2NC(=O)[C@@H](NC(=O)CN)CSSC[C@H](NC(=O)[C@H](CCCNC(=N)N)NC(=O)[C@@H]3CCCN3C(=O)[C@H](CC(O)O)NC1=O)C(=O)N[C@@H](CCCNC(=N)N)C(=O)N[C@@H](Cc1ccc(O)c(I)c1)C(=O)N[C@@H](CCC(N)=O)C(=O)N[C@H](C(=O)NCCC(=O)N[C@@H](CCCNC(=N)N)C(=O)O)CSCS2` as the compound, how does the IC50 [2] read?
The IC50 was 2.9 nM.
